Anti-infective test results gathered from many reports (values: NIAID ChemDB through PubChem).

Shared fields: tests in culture; organism: Mycobacterium tuberculosis

MIC bound comes from a single tested concentration. ECn is the concentration giving n% inhibition of infection, replication or growth. An empty or dashed field is not shown. Conditions beyond the fields shown may differ between rows. Percent inhibition refers to the dose given; in toxicity tests it is the harm to the cells.

| compound | endpoint | method | tested at | strain | cell line | value |
|---|---|---|---|---|---|---|
| NNC(=O)c1ccncc1 | MIC | - | - | H37Rv | - | 0.12 µg/mL |
| CCCCCCCCCCCCCCCCOc1nn(C)c(=O)c2c(C)n(CCCC)c(C)c12 | EC50 | - | - | H37Rv | - | <12.5 µg/mL |
| CCOC(=O)Nc1cc(Nc2ccccc2)c([N+](=O)[O-])c(N)n1 | EC50 | - | - | H37Rv | - | <12.5 µg/mL |
| CCCCCCCCCCCCCC[n+]1cccc(C(N)=O)c1.[Br-] | MIC bound | BACTEC | - | H37Rv | - | >12.5 µg/mL |
| NNC(=O)c1cc(C2CCCCC2)c2ccccc2n1 | inhibition | BACTEC | 6.25 µg/mL | H37Ra | - | 0% |
| CC(C)=CCCC(C)(OC1OC(CO)C(O)C(O)C1O)C1CCC2(C)C1C(O)CC1C3(C)CCC(O)C(C)(C)C3C(OC3OC(CO)C(O)C(O)C3O)CC12C | inhibition | fluorescence | 200 µM | - | - | 2.62% |
| COC(=O)C1C(O)C(C)C(OC(C)=O)C(C)/C=C\C=C(/C)C(=O)Nc2c(C)c(OC(C)=O)c3c(c2O)C(=O)C(C)=C2OCOC(=C23)/C(C)=C/C(C)(O)C(O)C(C)C1O | MIC | - | - | H37Rv | - | >12.5 µg/mL |
| O=C1NOCC1NC(=O)C(F)(F)F | MIC | - | - | H37Rv | - | 50 µg/mL |
| COC(=O)c1ccccc1NC(=O)C(=O)Cc1nc2c3c(ccc2[nH]c1=O)C(=O)c1ccccc1C3=O | MIC bound | resazurin | - | H37Rv | - | >6.25 µg/mL |
| NNC(=O)c1ccncc1 | MIC | resazurin | - | ATCC 27294 | - | <0.06 µg/mL |
| O=C(N/N=C/c1ccccc1O)c1cc(-c2ccc(F)cc2F)ccc1O | inhibition | resazurin | 6.25 µg/mL | H37Rv | - | 17% |
| NC(=S)c1ccnc(SCc2c(F)cccc2[N+](=O)[O-])c1 | MIC | - | - | My 331/88 | - | 31 µM |
| NNC(=O)c1cc(-c2ccc(F)cc2F)ccc1O | inhibition | resazurin | 6.25 µg/mL | H37Rv | - | 21% |
| CCC1CN2CCc3cc(OC)c(OC)cc3[C@@H]2C[C@@H]1C[C@@H]1c2cc(OC)c(OC)cc2CCN1C(=O)[C@H](Cc1c[nH]c2ccccc12)NC(=O)OC(C)(C)C | MIC | BACTEC | - | H37Rv | - | ≥12.5 µg/mL |
| O=C(N/N=C/c1ccc(Cl)cc1)c1cc(-c2ccc(F)cc2F)ccc1O | MIC | resazurin | - | H37Rv | - | >6.25 µg/mL |
| S=C(Nc1ccccc1)Nc1ccc(-c2nnc(NC3CCCCC3)s2)cc1 | inhibition | - | 6.25 µg/mL | H37Rv | - | 67% |
| O=C(Cc1csc2nc(-c3ccccc3)cn12)NN=C1CCCC1 | EC50 | - | - | H37Rv | - | >6.25 µg/mL |
| COc1cc(C2Oc3cc(C4Oc5cc(O)cc(O)c5C(=O)C4O)ccc3OC2CO)ccc1O | inhibition | fluorescence | 200 µM | - | - | 0% |
| CC[C@H]1OC(=O)[C@H](C)[C@@H](O[C@H]2C[C@@](C)(OC)[C@@H](O)[C@H](C)O2)[C@H](C)[C@@H](O[C@@H]2O[C@H](C)C[C@H](N(C)C)[C@H]2O)[C@](C)(OC)C[C@@H](C)C(=O)[C@H](C)[C@@H](O)[C@]1(C)O | MIC | - | - | Isolate 40 | - | 2 µg/mL |
| NNC(=O)c1c(C2CCCC2)nc2ccccc2c1C1CCCC1 | inhibition | BACTEC | 6.25 µg/mL | H37Ra | - | 56% |
| O=C(Cc1csc2nc(-c3ccc(Cl)cc3)cn12)NN=C1CCCCC1 | inhibition | - | 6.25 µg/mL | H37Rv | - | 13% |
| COC(=O)C1Cc2c([nH]c3ccccc23)C2CCC(=O)N12 | MIC bound | resazurin | - | H37Rv | - | >6.25 µg/mL |
| CCCCNC(=O)c1cc(C2C3CC4CC(C3)CC2C4)c2ccccc2n1 | MIC | BACTEC | - | H37Ra | - | >6.25 µg/mL |
| CCNc1nnc(-c2ccc(NC(=S)Nc3ccccc3)cc2)s1 | MIC | - | - | H37Rv | - | >6.25 µg/mL |
| Cc1cc(C(=C2C=CC(=[NH+]c3ccc(S(=O)(=O)O)cc3)C=C2)c2ccc(Nc3ccc(S(=O)(=O)[O-])cc3)cc2)cc(S(=O)(=O)O)c1N | inhibition | BACTEC | 12.5 µg/mL | H37Rv | - | 0% |
| CCCCCCCNC(=O)c1cc(C2C3CC4CC(C3)CC2C4)c2ccccc2n1 | inhibition | BACTEC | 6.25 µg/mL | H37Ra | - | 1% |
| O=C(NC1CONC1=O)c1cccc(C(F)(F)F)c1 | MIC | - | - | H37Rv | - | >50 µg/mL |
| CCCCn1c(C)c2c(=O)n(C)n(Cc3ccc(Cl)cc3)c(=O)c2c1C | inhibition | - | 12.5 µg/mL | H37Rv | - | 52% |
| NC(=O)C1CC(O)CN1C(=O)c1cccnc1 | inhibition | BACTEC | 12.5 µg/mL | H37Rv | - | 6% |
| Clc1ccc(N2COc3ccccc3C2)c(Cl)c1 | MIC | absorbance | - | - | - | 1.53 µg/mL |
| CSC(=S)N/N=C(\C)c1ccccn1 | MIC bound | BACTEC | - | H37Rv | - | ≤128 µg/mL |
| CC1CCC(=NNC(=O)Cc2csc3nc(-c4ccccc4)cn23)CC1 | MIC | - | - | H37Rv | - | >6.25 µg/mL |
| CN(C)c1ccc(/C=C2\N=C(c3ccc([N+](=O)[O-])cc3)OC2=O)cc1 | MIC bound | BACTEC | - | H37Rv | - | >12.5 µg/mL |
| O=C(Nc1cc(Br)ccc1O)c1cncc(Cl)n1 | inhibition | - | 6.25 µg/mL | H37Rv | - | 0% |
| N#Cc1ccnc(SCc2ccccc2)c1 | MIC | - | - | My 331/88 | - | 125 µM |
| O=C(CCCO)NN=Cc1ccc([N+](=O)[O-])s1 | MIC bound | BACTEC | - | H37Rv | - | >12.5 µg/mL |
| COc1cc(NC(=O)c2cncc(Cl)n2)cc(OC)c1 | inhibition | - | 6.25 µg/mL | H37Rv | - | 11% |
| NNC(=O)c1cc2ccccc2cc1O | MIC bound | BACTEC | - | H37Rv | - | >12.5 µg/mL |
| CCOC(=O)Nc1cc(NCCc2ccc(S(=O)(=O)N(CC)CC)cc2)c2ncc(-c3ccc(Cl)cc3)nc2n1 | EC50 | - | - | H37Rv | - | >12.5 µg/mL |
| O=C(NC1CONC1=O)c1ccccc1C(F)(F)F | MIC | - | - | 13PI | - | 25 µg/mL |
| Cc1nc2ccccc2nc1C(=O)/C=C/c1ccc([N+](=O)[O-])cc1 | EC50 | resazurin | - | H37Rv | - | >250 µM |
| NC(=S)c1ccnc(SCc2ccccc2)c1 | MIC | - | - | My 331/88 | - | 16 µM |
| CC(=O)NC[C@H]1CN(c2ccc(N3CCN(Cc4ccc([N+](=O)[O-])s4)CC3)c(F)c2)C(=O)O1 | Geometric mean MIC | - | - | 16 isolates (MDR) | - | 0.117 µg/mL |
| CC1COc2c(N3CCN(C)CC3)c(F)cc3c(=O)c(C(=O)O)cn1c23 | MIC | - | - | H37Ra | - | 0.25 µg/mL |
| CC[C@@H](CO)NCCN[C@@H](CC)CO | MIC | absorbance | - | - | - | 1.8 µg/mL |
| OCC1OC(Oc2c(O)cc(O)cc2C=Cc2ccc(O)cc2)C(O)C(O)C1O | inhibition | fluorescence | 200 µM | - | - | 0% |
| CC(C)(C)c1ncc(C(=O)Nc2ccccc2Br)nc1Cl | inhibition | - | 6.25 µg/mL | H37Rv | - | 25% |
| CC(C)Cn1c[n+](Cc2ccc([N+](=O)[O-])cc2)c2c1C(=O)c1ccccc1C2=O | MIC | BACTEC | - | H37Rv | - | 0.78 µg/mL |
| COc1cccc(NC(=O)c2cnc(C(C)(C)C)c(Cl)n2)c1 | inhibition | - | 6.25 µg/mL | H37Rv | - | 23% |
| COC(=O)[C@@H]1CN(C(=O)c2ccccc2)C(=O)N1C(=O)Oc1ccccc1 | inhibition | BACTEC | 12.5 µg/mL | H37Rv | - | 0% |
| COc1ccc(Nc2nnc(-c3ccc(NC(=S)Nc4ccccc4)cc3)s2)cc1 | inhibition | - | 6.25 µg/mL | H37Rv | - | 5% |
| Cc1cc(C)c(/C=N/NC(=O)c2cc(-c3ccc(F)cc3F)ccc2O)c(C)c1 | inhibition | resazurin | 6.25 µg/mL | H37Rv | - | 31% |
| Cc1ccc(CCNC(=O)c2c3nc4c(C(=O)NCCc5ccc(C)cc5)ccc(Br)c4oc-3c(Br)c(=O)c2N)cc1 | inhibition | BACTEC | 12.5 µg/mL | H37Rv | - | -74% |
| CC1(C)CCc2c(c3ccccc3c3nc(-c4ccccc4C#N)oc23)O1 | MIC | resazurin | - | ATCC 35822 | - | 17.6 µg/mL |
| COc1ccc(OC)c2[nH]c(Sc3c([N+](=O)[O-])ncn3C)nc12 | inhibition | BACTEC | 12.5 µg/mL | H37Rv | - | 14% |
| CCOC(=O)Nc1cc(N(CCc2ccccc2)Cc2ccccc2)c2nc(C)oc2c1 | inhibition | - | 12.5 µg/mL | H37Rv | - | 77% |
| CC1SC2(CCCCC2)N(NC(=O)Cc2csc3nc(-c4ccc(Cl)cc4)cn23)C1=O | MIC | - | - | H37Rv | - | <6.25 µg/mL |
| O=c1c(O)c(-c2ccc(O)cc2)oc2cc(O)cc(O)c12 | inhibition | fluorescence | 200 µM | - | - | 68.29% |
| CCOC(=O)Nc1cc(Nc2ccc(Cl)cc2)c2nc(-c3ccc(Cl)cc3)c(-c3ccc(Cl)cc3)nc2n1 | EC50 | - | - | H37Rv | - | >12.5 µg/mL |
| Cc1cccc(CSc2cc(C(N)=S)ccn2)c1 | MIC | - | - | My 331/88 | - | 31 µM |
| CCOC(=O)Nc1cc(=O)c([N+](=O)[O-])c(N)[nH]1 | EC50 | - | - | H37Rv | - | >12.5 µg/mL |
| CC1CCC2(C(=O)OC3OC(COC4OC(CO)C(OC5OC(C)C(O)C(O)C5O)C(O)C4O)C(O)C(O)C3O)CCC3(C)C(=CCC4C5(C)CC(O)C(O)C(C)(CO)C5C(O)CC43C)C2C1C | inhibition | fluorescence | 200 µM | - | - | 0% |
| Fc1ccc(Nc2nnc(-c3ccc(NC(=S)Nc4ccccc4)cc3)s2)cc1 | MIC | - | - | H37Rv | - | >6.25 µg/mL |
| CCN(CC)CC[n+]1ccc2c(C)c3[nH]c4ccc(O)cc4c3c(C)c2c1 | MIC bound | resazurin | - | H37Rv | - | <6.25 µg/mL |
| CC[C@@H](CO)NCCN[C@@H](CC)CO | MIC | - | - | K139 | - | 16 µg/mL |
| CC(C)(C)c1cnc(C(=O)Nc2ccc(Cl)c(Cl)c2)cn1 | inhibition | - | 6.25 µg/mL | H37Rv | - | 15% |
| CC1CCC/C(=N\NC(=O)Cc2csc3nc(-c4ccccc4)cn23)C1 | EC50 | - | - | H37Rv | - | >6.25 µg/mL |
| NNC(=O)c1c(C2CCCCC2)nc2ccccc2c1C1CCCCC1 | MIC | BACTEC | - | H37Ra | - | >6.25 µg/mL |
| COc1ccc(N2COc3ccc(OC)cc3C2)cc1 | MIC | absorbance | - | - | - | 5.18 µg/mL |
| CO[C@H]1/C=C/O[C@@]2(C)Oc3c(C)c(O)c4c(O)c(cc(O)c4c3C2=O)NC(=O)/C(C)=C\C=C\[C@H](C)[C@H](O)[C@@H](C)[C@@H](O)[C@@H](C)[C@H](OC(C)=O)[C@@H]1C | MIC | - | - | SOCCI I | - | 0.02 µg/mL |
| CCN(CC)CCNc1ccc2nc(C)n3c4ccc(O)cc4c(=O)c1c23.Cl | MIC | - | - | H37Rv | - | 12.5 µg/mL |
| Clc1ccccc1N1COc2ccccc2C1 | MIC | absorbance | - | - | - | 2 µg/mL |
| CCCCCCCCCCCCCCCCn1c(=O)c2c(C)n(CCCC)c(C)c2c(=O)n1C | EC50 | - | - | H37Rv | - | >12.5 µg/mL |
| CN(C)[C@@H]1C(=O)C(C(N)=O)=C(O)[C@@]2(O)C(=O)C3=C(O)c4c(O)cccc4[C@@](C)(O)[C@H]3C[C@@H]12 | MIC | BACTEC | - | H37Rv | - | >12.5 µg/mL |
| Cc1cc(C2CCCC2)nc2c(C3CCCC3)cccc12 | inhibition | BACTEC | 6.25 µg/mL | H37Ra | - | 100% |
| CNC(=O)c1nc(C)c(C)[nH]c1=O | inhibition | BACTEC | 12.5 µg/mL | H37Rv | - | 9% |
| O=C(Cc1csc2nc(-c3ccc(Cl)cc3)cn12)NN=C1CCCC1 | MIC | - | - | H37Rv | - | <6.25 µg/mL |
| CC1(C)CCc2c(c3ccccc3c3[nH]c(-c4ccc(F)cc4)nc23)O1 | MIC | resazurin | - | ATCC 35822 | - | 17.2 µM |
| O=C(N/N=C/c1ccc(F)cc1)c1cc(-c2ccc(F)cc2F)ccc1O | inhibition | resazurin | 6.25 µg/mL | H37Rv | - | 19% |
| Cc1c2c(OCCCCN3CCN(c4ncccn4)CC3)nn(C)c(=O)c2c(C)n1-c1ccccc1 | EC50 | - | - | H37Rv | - | >12.5 µg/mL |
| CCC1CCC2(CC1)SCC(=O)N2NC(=O)Cc1csc2nc(-c3ccccc3)cn12 | EC50 | - | - | H37Rv | VERO | <6.25 µg/mL |
| CC1C(=O)OC2C(O)C34C5CC(C(C)(C)C)C36C(OC(=O)C6O)OC4(C(=O)O5)C12O | inhibition | fluorescence | 200 µM | - | - | 39.9% |
| O=C1c2ccccc2C(=O)c2c3c(cc([N+](=O)[O-])c21)OCO3 | inhibition | resazurin | 6.25 µg/mL | H37Rv | - | 80% |
| Cc1cnc(NC(=O)c2cnc(C(C)(C)C)c(Cl)n2)s1 | inhibition | - | 6.25 µg/mL | H37Rv | - | 61% |
| NC(=S)c1ccnc(SCc2ccc([N+](=O)[O-])cc2)c1 | MIC | - | - | My 331/88 | - | 16 µM |
| CC1CCC/C(=N\NC(=O)Cc2csc3nc(-c4ccc(Cl)cc4)cn23)C1 | EC50 | - | - | H37Rv | - | <6.25 µg/mL |